From ChEMBL document CHEMBL4831479, “Discovery of Novel Thiophene-arylamide Derivatives as DprE1 Inhibitors with Potent Antimycobacterial Activities” (J Med Chem, 2021)

How the values were obtained:
[1] = Ratio of MIC for Mycobacterium bovis BCG transfected with pMV261:Mt-dprE1 to MIC for wild type Mycobacterium bovis BCG
[2] = system: Mycobacterium tuberculosis; experiment: Non-covalent inhibition of DprE1 in PBTZ169-resistant Mycobacterium tuberculosis measured after 7 days by microplate Alamar blue assay; conditions: time 7.0 day

Structure (SMILES)	Ratio [1]	MIC [2]
O=C(Nc1sccc1C(=O)Nc1nccc(C(F)(F)F)n1)c1ccc(C(=O)N2CCCCC2)cc1	8	
CCOC(=O)NC(=O)c1ccsc1NC(=O)c1ccc(C(=O)N2CCCCC2)s1	32	
CCOC(=O)NC(=O)c1ccsc1NC(=O)c1nc2ccccc2s1		1.23 µg/mL (≈ 3.28 µM)
CCOC(=O)NC(=O)c1ccsc1NC(=O)c1ccc(C(=O)N2CCCCC2)c(F)c1	> 8	

Converted amounts (≈) assume the structure as drawn.
